Source: the supplement of paper PMC12637763
The list shows a part of the results. Env chains of viruses from a treatment-interruption trial, translated from the printed DNA. IC50 / IC80 of two broadly neutralizing antibodies; lower = more sensitive virus; >50 µg/ml means not reached and <0.001 µg/ml is below the lowest dose. No active / inactive call.

B1: HIV-1 Env, rebound clone, placebo arm (protein)
chain: MKVRGTKMNWQHLWWRWGTMLLGMLMICKATEEKWVTVYYGVPVWKEATTTLFCASDAKAYEKEAHNVWATHACVPTDPSPQEVVLENVTENFNMWKNNMVEQMHEDIISLWDQSLKPCVKLTPLCVTLNCTDYTNSNSTNHTNSNSSSPTPTAGGEIKNCSFNITTNIRDKIKKEHALFYSLDVVQIDINDNTSYRLISCNTSVITQACPKTTFEPIPIYYCAPAGFAILKCNNKTFDGKGPCKNVSTVQCTHGIRPVVSTQLLLNGSLAEKEIVIRSDNFSDNTKNIIVQLKDPVVINCTRPNNNTRKGIHIGPGRAFYATGKVIGDIRQAYCNISKEEWNKTLGQIVKKLGAQFGNKTTMIFNQSSGGDPEIVTHSFNCGGEFFYCNTSALFNSTWSSNDGNGTWNKTNSTETNSTEIILQCRIKQIVNMWQEVGKAMYAPPIKGPIRCSSNITGLILTRDGGNNTGNNSETFRPAGGNMRDNWRSELYKYKIVKIEPLGIAPTKAKRRTVQREKRAVTMGAMFLGFLGAAGSTMGAASLTLTVQARQLLSGIVQQQNNLLRAIEAQQHLLQLTVWGIKQLQARVLAVERYLADQRFLGIWGCSGKLICTTTVPWNNSWSNKSLDSIWNNMTWMQWEKEIENYTGEIYNLIEQAQNQQEQNERELLELDKWASLWNWFDIPNWLWYIKIFIMIVGGLIGLRIVFAVLSIVNRVRQGYSPLSLQTLLPTPRGPDRPEGIEGEGGERDRDTSIRLVDGFLALFWDDLRNLCLFSYRHLRDLLLIAARIVELLGLRGWEILKYLWNLLLYWSQELKNSAISLLDATAIAVAEGTDRIIEAVRRFCRGVLHIPRRIRQGFERALQ
B2: HIV-1 Env, rebound clone, placebo arm (protein)
chain: MKVRGTKMNWQHLWWRWGTMLLGMLMICKATEEKWVTVYYGVPVWKEATTTLFCASDAKAYEKEAHNVWATHACVPTDPSPQEVVLENVTENFNMWKNNMVEQMHEDIISLWDQSLKPCVKLTPLCVTLNCTDYTNSNSTNHTNSNSSSPTPTAGGEIKNCSFNITTNIRDKIKKEHALFYSLDVVQIDINDNTSYRLISCNTSVITQACPKTTFEPIPIYYCAPAGFAILKCNNKTFDGKGPCKNVSTVQCTHGIRPVVSTQLLLNGSLAEKEIVIRSDNFSDNTKNIIVQLKDPVVINCTRPNNNTRKGIHIGPGRAFYATGKVIGDIRQAYCNISKEEWNKTLGQIVKKLGAQFGNKTTMIFNQSSGGDPEIVTYSFNCGGEFFYCNTSALFNSTWSSNDGNGTWNKTNSTETNSTEIILQCRIKQIVNMWQEVGKAMYAPPIKGPIRCSSNITGLILTRDGGNNTGNNSETFRPAGGNMRDNWRSELYKYKIVKIEPLGIAPTKAKRRTVQREKRAVTMGAMFLGFLGAAGSTMGAASLTLTVQARQLLSGIVQQQNNLLRAIEAQQHLLQLTVWGIKQLQARVLAVERYLADQRFLGIWGCSGKLICTTTVPWNNSWSNKSLDSIWNNMTWMQWEKEIENYTGEIYNLIEQAQNQQEQNERELLELDKWASLWNWFDISNWLWYIKIFIMIVGGLIGLRIVFAVLSIVNRVRQGYSPLSLQTLLPTPRGPDRPEGIEGEGGERDRDTSIRLVDGFLALFWDDLRNLCLFSYRHLRDLLLIAARIVELLGLRGWEILKYLWNLLLYWSQELKNSAISLLDATAIAVAEGTDRIIEAVRRFCRGVLHIPRRIRQGFERALQ
B3: HIV-1 Env, rebound clone, placebo arm (protein)
chain: MKVRGTKMNWQHLWWRWGTMLLGMLMICKATEEKWVTVYYGVPVWKEATTTLFCASDAKAYEKEAHNVWATHACVPTDPSPQEVVLENVTENFNMWKNNMVEQMHEDIISLWDQSLKPCVKLTPLCVTLNCTDYTNSNSTNHTNSNSSSPTPTAGGEIKNCSFNITTNIRDKIKKEHALFYSLDVVQIDINDNTSYRLISCNTSVITQACPKTTFEPIPIYYCAPAGFAILKCNNKTFDGKGPCKNVSTVQCTHGIRPVVSTQLLLNGSLAEKEIVIRSDNFSDNTKNIIVQLKDPVVINCTRPNNNTRKGIHIGPGKAFYATGKVIGDIRQAYCNISKEEWNKTLGQIVKKLGAQFGNKTTMIFNQSSGGDPEIVTHSFNCGGEFFYCNTSALFNSTWSSNDGNGTWNKTNSTETNSTEIILQCRIKQIVNMWQEVGKAMYAPPIKGPIRCSSNITGLILTRDGGNNTGNNSETFRPAGGNMRDNWRSELYKYKIVKIEPLGIAPTKAKRRTVQREKRAVTMGAMFLGFLGAAGSTMGAASLTLTVQARQLLSGIVQQQNNLLRAIEAQQHLLQLTVWGIKQLQARVLAVERYLADQRFLGIWGCSGKLICTTTVPWNNSWSNKSLDSIWNNMTWMQWEKEIENYTGEIYNLIEQAQNQQEQNERELLELDKWASLWNWFDISNWLWYIKIFIMIVGGLIGLRIVFAVLSIVNRVRQGYSPLSLQTLLPTPRGPDRPEGIEGEGGERDRDTSIRLVDGFLALFWDDLRNLCLFSYRHLRDLLLIAARIVELLGLRGWEILKYLWNLLLYWSQELKNSAISLLDATAIAVAEGTDRIIEAVRRFCRGVLHIPRRIRQGFERALQ
B4: HIV-1 Env, rebound clone, placebo arm (protein)
chain: MKVRGTKMNWQHLWWRWGTMLLGMLMICKATEEKWVTVYYGVPVWKEATTTLFCASDTKAYEKEAHNVWATHACVPTDPSPQEVVLENVTENFNMWKNNMVEQMHEDIISLWDQSLKPCVKLTPLCVTLNCTDYTNSNSTNHTNSNSSSPTPTAGGEIKNCSFNITTNIRDKIKKEHALFYSLDVVQIDINDNTSYRLISCNTSVITQACPKTTFEPIPIYYCAPAGFAILKCNNKTFDGKGPCKNVSTVQCTHGIRPVVSTQLLLNGSLAEKEIVIRSDNFSDNTKNIIVQLKDPVVINCTRPNNNTRKGIHIGPGRAFYATGKVIGDIRQAYCNISKEEWNKTLGQIVKKLGAQFGNKTTMIFNQSSGGDPEIVTHSFNCGGEFFYCNTSALFNSTWSSNDGNGTWNKTNSTETNSTEIILQCRIKQIVNMWQEVGKAMYAPPIKGPIRCSSNITGLILTRDGGNNTGNNSETFRPAGGNMRDNWRSELYKYKIVKIEPLGIAPTKAKRRTVQREKRAVTMGAMFLGFLGAAGSTMGAASLTLTVQARQLLSGIVQQQNNLLRAIEAQQHLLQLTVWGIKQLQARVLAVERYLADQRFLGIWGCSGKLICTTTVPWNNSWSNKSLDSIWNNMTWMQWEKEIENYTGEIYNLIEQAQNQQEQNERELLELDKWASLWNWFDISNWLWYIKIFIMIVGGLIGLRIVFAVLSIVNRVRQGYSPLSLQTLLPTPRGPDRPEGIEGEGGERDRDTSIRLVDGFLALFWDDLRNLCLFSYRHLRDLLLIAARIVELLGLRGWEILKYLWNLLLYWSQELKNSAISLLDATAIAVAEGTDRIIEAVRRFCRGVLHIPRRIRQGFERALQ
B5: HIV-1 Env, rebound clone, placebo arm (protein)
chain: MRVKGIRKSYQPLWVGGILLLGMLMLCSTTEQLWVTVYYGVPVWKEATTTLFCASDAKGYDTEAHNVWATHACVPTDPNPQELKLENVTENFNMWKNGMVQQMHEDIISLWDQSIKPCVKLTPLCVTLNCSGVNINNTNANTTSNNTSWREMKEEIKNCSFNHTDTRNKMRKDYALFNSLDVIPIDRNDSTSYMLTSCNTSVITQACPKISFEPIPIHYCAPAGFAILKCNDKNFNGTGPCKKVSLVQCTHGIKPVVSTQLLLNGSLAEEDIVIRSENFTNNAKTIIVQLNSSIEITCIRPNNNTRKSIHLGPGAAFYATGDIIGDIRKAYCNISKVKWENTLDKIAKKLQGQFGENKTIVFNHSSGGDPEIVHHSFNCGGEFFYCNTTKLFSWNSTRTPNNSTDIITIPCRIKQIINRWQQVGRAIYAPPISGNISCSANITGLLLTRDGGDSNSTDNNTETFRPGGGDMRDNWRSELYKYKVVSIEPLGIAPTKARRRVVQREKRAVGMIGAMFLGFLGAAGSTMGAASVALTVQARQLLSGIVQQQNNLLRAIEAQQHMLQLTVWGIKQLQARVLAVERYLKDQQLLGIWGCSGKLICTTNVPWNISWSNRNLDDIWGNMTWMQWEREIDNYTGLIYSLLTESQTQQEQNEKELLELDKWASLWNWFDISNWLWYIRIFIMIVGGLVGLRIIFTILNVVNRVRKGYSPLSFQTRLPATRGPDRPEETEEEGGGRDRGRSETLVTGFLALIWDDLRSLCLFIYHRLRDLLLIATRSVELLGRRGWELLKYLWNLLQYWGQELRNSAVSLLNATAIAVAEGTDRIIEVAQRIGRAIIHIPRRIRQGAERALL
B6: HIV-1 Env, rebound clone, placebo arm (protein)
chain: MRVKGIRKSYQPLWVGGILLLGMLMLCSTTEQLWVTVYYGVPVWKEATTTLFCASDAKGYDTEAHNVWATHACVPTDPNPQELKLENVTENFNMWKNGMVQQMHEDIISLWDQSIKPCVKLTPLCVTLNCSGVNINNTNANTTSNNTSWREMKEEIKNCSFNHTDTRNKMRKDYALFNSLDVIPIDRNDSTSYMLTSCNTSVITQACPKISFEPIPIHYCAPAGFAILKCNDKNFNGTGPCKNVSLVQCTHGIKPVVSTQLLLNGSLAEEDIVIRSENFTNNAKTIIVQLNSSIEITCIRPNNNTRKSIHLGPGAAFYATGDIIGDIRKAYCNISKVKWENTLDKIAKKLQGQFGENKTIVFNHSSGGDPEIVHHSFNCGGEFFYCNTTKLFSWNSTRTPNNSTDIITIPCRIKQIINRWQQVGRAIYAPPISGNISCSANITGLLLTRDGGDSNSTDNNTETFRPGGGDMRDNWRSELYKYKVVSIEPLGIAPTKARRRVVQREKRAVGMIGAMFLGFLGAAGSTMGAASVALTVQARQLLSDIVQQQNNLLRAIEAQQHMLQLTVWGIKQLQARVLAVERYLKDQQLLGIWGCSGKLICTTNVPWNISWSNRNLDDIWGNMTWMQWEREIDNYTGLIYSLLTESQTQQEQNEKELLELDKWASLWNWFDISNWLWYIRIFIMIVGGLVGLRIIFTILNVVNRVRKGYSPLSFQTRLPATRGPDRPEETEEEGGGRDRGRSETLVTGFLALIWDDLRSLCLFIYHRLRDLLLIATRSVELLGRRGWELLKYLWNLLQYWGQELRNSAVSLLNATAIAVAEGTDRIIEVAQRIGRAIIHIPRRIRQGAERALL

How the values were obtained:
[1] = target: antibody 10-1074; experiment: neutralization IC50; higher = virus less sensitive to the antibody
Description: (§1)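 Pseudovirus bearing the Env chain mixed with antibody, from 50 µg/ml in fivefold dilutions, on TZM-bl reporter cells, in duplicate.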

[2] = target: antibody 3BNC117; experiment: as above
Description: as §1

[3] = target: antibody 10-1074; experiment: neutralization IC80; higher = virus less sensitive to the antibody
Description: as §1

[4] = target: antibody 3BNC117; experiment: as above
Description: as §1

Binder	neutralization IC50 [1] [µg/mL]	neutralization IC50 [2] [µg/mL]	neutralization IC80 [3] [µg/mL]	neutralization IC80 [4] [µg/mL]
B1	0.006	0.154	0.049	0.703
B2	0.003	0.153	0.017	0.643
B3	0.004	0.073	0.016	0.264
B4	0.005	0.109	0.014	0.477
B5	0.01	0.455	0.024	1.57
B6	0.002	0.215	0.009	0.962
